Data: the supplement of paper PMC9931576
Human monoclonal antibodies against the spike receptor-binding domain (heavy:light variable regions). IC50 against pseudoviruses bearing the spike of naturally observed variants; lower = stronger; >10 µg/ml means not reached at the top dose. No active / inactive call. The stated detection limit is 0.0005 µg/ml; values near or below 0.001 µg/ml lie at the floor of the assay.

B1: BD55-5564 (protein)
chain 1: QVQLVESGGGVVQPGRSLKLSCAASGFPFSTYAMHWVRQAPGKGLEWVAVISFDSNDEYYADSVKGRFTISRDNSKNTLYLQMNSLRAEDTAVYYCARAGVLRYFDWLLSSGFASWGQGTLVTVSS
chain 2: DIQMTQSPSFLSASVGDRVTITCQASQDIRNYLNWYQQKPGKAPKLLIADASSLETGVPSRFSGSGSGTHFIITISSLQPEDIATYYCQQYYNLPSFGQGTKLEIK
B2: BD55-5625 (protein)
chain 1: EVQVVESGGDLIQPGGSLRLSCAVSGFSVSDNYMNWVRQAPGKGLEWVSLIYRDGNTNYADSVKGRFTISRDNSKNTLYLQMNSLRAEDTAVYYCARVRTNLIMLFGVVTFESGHYFYYMDVWGTGTTVAVSS
chain 2: QSVLTQPPSVSAAPGQKVSISCSGSSSNIANTDVSWYQQLPGTGPKLLIYDNDKRPSGISDRFSGSKSGTSATLGITGLHTGDEADYYCGTWDSSLSLYVFGSGTKVTVL
B3: BD55-5599 (protein)
chain 1: QVQLVQSGAEVKRPGSSVKVSCKASGGPFSSYAISWVRQAPGRGLEWMGRIIPILGITNYPQNFQGRVTLMADKSTSTVYMELSSLRSEDTAIYYCARDVEWSPDFLRGPRGGDYWGQGTLVTVSS
chain 2: EIVLTQSPGTLSLSPGDRATLSCRASQSVRGSDLAWYQQRPGQAPRLLIYDASSRATGIPDRFSGSGSGTDFTLTISRLEPEDFAVYYCQQYGSSLSFTFGPGTKVEFK
B4: BD55-5575 (protein)
chain 1: EVQLVESGGGLVQPGGSLRLSCVASGFTFSNYAMHWVRQAPGKGLEYVSSITSDGSGTFYANSVKDRFTISRDNSKNTLYLQLGSLRTEDMAVYFCSRESRVVVDATLDFWGQGTLVTVSS
chain 2: DIQMTQSPSSLSASVGDRVTITCRASQSIARYLNWYQLKPGKAPKLLIYSASSLQGGVPSRFSGSGSGTDFTLTINGLQPEDFATYYCQQSYITPQYTFGQGTKLDMK
B5: BD55-1075 (protein)
chain 1: EVRLVESGGGLVKPGGSLRLSCAASGFVLDTYDMNWVRQAPGKGLEWVSSITTSGSYIYYADSVKGRFTISRDNAKNSVYLQMESLRAEDTALYYCARELGVYGDHFGDHWGQGTLVTVSS
chain 2: QSVLTQPPSASGTPGQRVTISCSGSSSNIGTNSVNWYQQVPGTAPKLLIYTNIKRPSGVPDRFSGSKSGTSGSLAISGLQSEDEADYYCAAWDDSLNGYVFGAGTRVTVL
B6: BD55-5630 (protein)
chain 1: QVQLVQSGAEVKKPGASVKVSCKASGYTFTNYDINWVRQATGQGLEWMGWMNPNSGDTGYAHKFEGRVTMTRNTAINTAYMELSNLRSEDTAVYYCAIMYGSGSGALRYYYYVMDVWGQGTTVTVSS
chain 2: DIQMTQSPSSLSASVGDRVTITCRASQSIDNNLNWYQQKPGKAPKLLIVAASSLQGGVPSRFSGAGSGTDFTLTINSLQPEDFAIYYCQQSYSFPGTFGPGIKVDIK
B7: BD55-5610 (protein)
chain 1: EVQLVESGGGLIQPGRSLRLSCAASGFTFDDYALHWVRQPPGKGLQWVSGISWNGGDILYADSVKGRFTISRDNAKNSLFLQMNSLRADDTALYYCAKAPLGELLHNWFDSWGQGTLVTVSS
chain 2: EIVLTQSPATLSLSPGERATLSCRASQSVSTYLAWYQQKPGQAPRLLIYDTSNRAAGTPARFSGGGFGTDFTLTIDSLEPEDFAVYYCQQRGNWLITFGQGTRLEIK
B8: BD55-5555 (protein)
chain 1: EVQLVESGGGLIQPGGSLRLSCAVSGFSMNSNYMTWVRQAPGKGLEWISVVYNGGGTYYADSVKGRFTISRDIPNNTLYLQMSSLRAEDTAMYYCARGNNYGDDWFDPWGQGTQVTVSS
chain 2: EIVLTQSPATLSLSPGDRATLSCRASQSDNRYLAWYQQKPGQAPRLLIYDVSNRATAIPARFSGSGSGTEFTLTISNLEPEDFAVYYCQQRNKWPPTFTFGQGTKLEIK
B9: BD55-5569 (protein)
chain 1: QITLKESGPALVKPTQTLTLTCTFSGFSLTTSRVSVGWIRQPPGKALEWLALIYWDDDKRYSPSLKTRLTITKDTSKNQVVLTMTNMDPVDTATYYCAHIGGRGFQQLLHWFDPWGQGALVTVSS
chain 2: QSVLSQPPSASGTPGQRVTISCSGSSSNIGSNTVNWYQQLPGTAPKLLIYSDDQRPSGVPDRFSGSKSGTSASLAISGLQSGDEADYYCASWDDSLNGPVFGGGTKLTVL
B10: BD55-5594 (protein)
chain 1: QVQLVQSGAEVKKPGSSVKVSCRASGGTFSSYGINWVRQAPGRGLEWMGRITPIPGIANYAQKFQGRVTITADKSTSTAYMELSSLRSDDTAVYYCARESPGYSGYDATTIDAFHFWGQGTMVTVSS
chain 2: QSVLTQPPSVSGAPGQRVTISCTGSSSNIGAGYDVHWYQQLPGTAPKLLIYDNNNRPSGVPDRFSGSKSGTSASLAITGLQAEDEADYYCQSYDSRLSGSGVVFGGGTKLTVL
B11: BD55-5623 (protein)
chain 1: EVQLVQSGAEVKKPGESLKISCKGSGHSFTSQWIGWVRQMPGKGLEWMGIIYPGDSETKYSPSFQGQVTISADKSISTAYLQWSSLKASDTAMYYCASSGGLRWNFEYWGQGTQVTVSS
chain 2: DIVMTQSPDSLAVSLGERATINCKSSQSVLYSSNNKNYLAWYQQKPGQPPKLLIYWASTRESGVPDRFSGSGSGTDFTLTISSLQAEDVAVYYCQQYYSTLYTFGPGTKLEIK
B12: BD55-5568 (protein)
chain 1: QVQLVESGGGVVRPGRSLRISCVVSGFTFNTYSMHWVRQAPGKGLEWVAVISEDETNKNYADFAEGRFTISRDNSKNTVFLQMNRLRAEDTAVYYCARDRAYYDMLAGYSHYYVGLDVWGQGTTVTVSS
chain 2: VVMTQSPLSLPVTLGQPASISCTSSQSLVHSDGDTYLSWFQQRPGQSPRRLIYKVSNRDSGVPDRFSGSGSGTEFTLTISRVEAEDVGVYYCMQATHWPPWTFGQGTKVEIK

target: SARS-CoV-2 Omicron BA.1 spike pseudovirus; assay: pseudovirus neutralization IC50; higher = weaker neutralization
Description: (§1)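 Single-round VSV luciferase pseudovirus mixed with antibody dilutions for 1 h and put on Huh-7 cells for about a day; IC50 from the dose curve.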

| Binder | pseudovirus neutralization IC50 [µg/mL] |
| --- | --- |
| B1 | > 10 |
| B2 | 3.54 |
| B3 | 0.00213 |
| B4 | > 10 |
| B5 | > 10 |
| B6 | 1.8 |
| B7 | > 10 |
| B8 | > 10 |
| B9 | > 10 |
| B10 | > 10 |
| B11 | > 10 |
| B12 | 1.28 |

target: SARS-CoV-2 Omicron BA.2 spike pseudovirus; assay: as above
Description: as §1

| Binder | pseudovirus neutralization IC50 [µg/mL] |
| --- | --- |
| B1 | > 10 |
| B2 | 5.47 |
| B3 | 0.00123 |
| B4 | > 10 |
| B5 | > 10 |
| B6 | 0.659 |
| B7 | > 10 |
| B8 | > 10 |
| B9 | > 10 |
| B10 | > 10 |
| B11 | > 10 |
| B12 | 1.76 |

target: SARS-CoV-2 Omicron BA.2.75 spike pseudovirus; assay: as above
Description: as §1

| Binder | pseudovirus neutralization IC50 [µg/mL] |
| --- | --- |
| B1 | > 10 |
| B2 | 3.42 |
| B3 | 0.00644 |
| B4 | > 10 |
| B5 | > 10 |
| B6 | 0.992 |
| B7 | > 10 |
| B8 | > 10 |
| B9 | > 10 |
| B10 | > 10 |
| B11 | > 10 |
| B12 | 2.73 |

target: SARS-CoV-2 Omicron BA.5 spike pseudovirus; assay: as above
Description: as §1

| Binder | pseudovirus neutralization IC50 [µg/mL] |
| --- | --- |
| B1 | > 10 |
| B2 | 1.02 |
| B3 | > 10 |
| B4 | > 10 |
| B5 | > 10 |
| B6 | 2.22 |
| B7 | > 10 |
| B8 | > 10 |
| B9 | > 10 |
| B10 | > 10 |
| B11 | > 10 |
| B12 | 1.87 |

target: SARS-CoV-2 Omicron BQ.1.1 spike pseudovirus; assay: as above
Description: as §1

| Binder | pseudovirus neutralization IC50 [µg/mL] |
| --- | --- |
| B1 | > 10 |
| B2 | 5.09 |
| B3 | > 10 |
| B4 | > 10 |
| B5 | > 10 |
| B6 | 1.51 |
| B7 | > 10 |
| B8 | > 10 |
| B9 | > 10 |
| B10 | > 10 |
| B11 | > 10 |
| B12 | 2.4 |

target: SARS-CoV-2 Omicron XBB spike pseudovirus; assay: as above
Description: as §1

| Binder | pseudovirus neutralization IC50 [µg/mL] |
| --- | --- |
| B1 | > 10 |
| B2 | 4.2 |
| B3 | > 10 |
| B4 | > 10 |
| B5 | > 10 |
| B6 | 0.875 |
| B7 | > 10 |
| B8 | > 10 |
| B9 | > 10 |
| B10 | > 10 |
| B11 | > 10 |
| B12 | 1.3 |

target: SARS-CoV-2 early D614G spike pseudovirus; assay: as above
Description: as §1

| Binder | pseudovirus neutralization IC50 [µg/mL] |
| --- | --- |
| B1 | 0.246 |
| B2 | 1.65 |
| B3 | 0.001 |
| B4 | > 10 |
| B5 | 0.0344 |
| B6 | 1.22 |
| B7 | 0.906 |
| B8 | > 10 |
| B9 | > 10 |
| B10 | 0.0373 |
| B11 | > 10 |
| B12 | 0.257 |
